# Measured values taken from PubChem BioAssay AID720596 (The Scripps Research Institute Molecular Screening Center, 2013).
# This is a selection; strong and weak results do not stand in their true shares. Calls of active or inactive are those of the source. Rule as the data show it: active = inhibition above about 24%; inactive = the rest.
# Target: Major prion protein (Homo sapiens) (UniProt P04156)
# Assay: inhibitors of human cell surface prion protein PrPC, primary screen, cell-based, TR-FRET (AID 720596); also: 0% = median of the test wells and 100% = reference compound wells
# Conditions: TR-FRET read-out, at 13.8 µM, stronger effect = higher value
row,Structure (SMILES),inhibition
1,CC(=O)NC(SC(=S)N(CC(C)C)CC(C)C)C(Cl)(Cl)Cl (stereo not given),inactive: -7.49%
2,Cc1ccc(OP(=O)(Nc2ccccn2)Oc2ccc(C)cc2)cc1,inactive: 3.98%
3,CC(C)(C)C(=O)NC(Sc1ccccc1)C(Cl)(Cl)Cl (stereo not given),inactive: 2.58%
4,CCc1cc(O)c([N+](=O)[O-])c(C)c1[N+](=O)[O-],inactive: -3.98%
5,O=P1(Nc2nc3ccc(Cl)cc3s2)COc2ccccc2O1 (stereo not given),inactive: -5.4%
6,CCOc1ccc(C2=NCC(CBr)S2)cc1 (stereo not given),inactive: 5.12%
7,CC(=O)Nc1ccc([As](=O)(O)O)c(O)c1,inactive: -6.53%
8,CC(=O)Nc1ccc(Oc2c([N+](=O)[O-])cc([N+](=O)[O-])cc2[N+](=O)[O-])cc1,inactive: -20.1%
9,Cc1ccccc1CN(C)C(=O)COC(=O)C(O)(c1ccccc1)c1ccccc1,inactive: 1.7%
10,C[C@H]1OP(=O)(Oc2ccccc2)C[C@@H]2O[C@@H]21 (stereo not given in full),inactive: 6.9%
11,C[C@@H]1C=CCP(=O)(Oc2ccccc2)O1 (stereo not given in full),inactive: 9.86%
12,CC(=O)c1ccc(N2CC2c2ccncc2)cc1 (stereo not given),inactive: 10.9%
13,N#C/C(=C\c1ccc(N(CCBr)CCBr)cc1)C(N)=O,inactive: 0.04%
14,COC(=O)C1(C)COP(=O)(NCc2ccccc2)OC1 (stereo not given),inactive: -5.16%
15,c1nnnn1CCn1cnnn1,inactive: 4.13%
16,CC(C)C(=O)NC(Sc1ccccc1)C(Cl)(Cl)Cl (stereo not given),inactive: 5.62%
17,O=P(Nc1nccs1)(c1ccccc1)c1ccccc1,inactive: -1.28%
18,O=P(Nc1nc2ccccc2s1)(c1ccccc1)c1ccccc1,inactive: 1.46%
19,C[C@H]1OP(=O)(Oc2ccccc2)[C@H](O)[C@H](O)[C@H]1N=[N+]=[N-] (stereo not given in full),inactive: -1.56%
20,O=P(Nc1ccccn1)(c1ccc(Br)cc1)c1ccc(Br)cc1,inactive: 3.63%
21,CN(C)C1(CNC(=O)c2ccc(Cl)c(S(N)(=O)=O)c2)CCCCC1,inactive: 5.87%
22,COc1ccc(N)c([N+](=O)[O-])c1[N+](=O)[O-],inactive: -14.4%
23,Nc1ccc(CCCCOc2ccccc2)cc1,inactive: -1.4%
24,O=C(OC1CN2CCC1CC2)c1cccc(Cl)c1 (stereo not given),inactive: 2.68%
25,C/C(N)=N\P(=O)(OCc1ccccc1)OCc1ccccc1,inactive: 6.99%

row,Structure (SMILES),inhibition
1,C(Cc1nn[nH]n1)Cc1nn[nH]n1,inactive: 1.99%
2,Nc1ccc([As](=O)(O)c2ccc([N+](=O)[O-])cc2)cc1,inactive: -11.1%
3,O=[As](O)(c1ccccc1)c1ccc(O)cc1,inactive: -4.83%
4,CC(=O)NC(SC(=S)N(C)C)C(Cl)(Cl)Cl (stereo not given),inactive: -3.68%
5,O=[N+]([O-])c1ncn(CCn2cnc([N+](=O)[O-])n2)n1,inactive: 1.47%
6,O=C(Nc1cc([As](=O)(O)O)ccc1O)c1ccccc1,inactive: 7.51%
7,O=P1(N(CCCl)CCCl)OCCCS1 (stereo not given),inactive: 1.91%
8,O=C(O)CNc1ccc([As](=O)(O)O)cc1,inactive: 3.21%
9,COC(=O)C1(C)COP(=O)(Nc2ccccc2)OC1 (stereo not given),inactive: -10.1%
10,O=[N+]([O-])c1cccc(NC2=NCC(CBr)S2)c1 (stereo not given),inactive: -32.6%
11,O=[N+]([O-])c1ncn(CCn2ncnc2[N+](=O)[O-])n1,inactive: -26.1%
12,CC(C)(C)C(=O)NC(Sc1ccncn1)C(Cl)(Cl)Cl (stereo not given),inactive: 5.13%
13,Cc1ccc(NP(=O)(Oc2ccccc2)Oc2ccccc2)nc1,inactive: 10.9%
14,CCc1nc2c(n1)c1c(non1O)c1c2no[n+]1[O-],inactive: -32%
15,O=[N+]([O-])c1cc([N+](=O)[O-])c(CCNc2ccccc2)c([N+](=O)[O-])c1,inactive: -40.2%
16,O=[N+]([O-])c1cccc2n[nH]nc12,inactive: -17.6%
17,CC(=O)N1C2C3N(C(C)=O)C1C1N(C(C)=O)C(C(N1C(C)=O)N3C(C)=O)N2C(C)=O,inactive: 4.84%
18,COc1ccc(C2=NCC(CBr)S2)cc1 (stereo not given),inactive: -1.65%
19,CC1CCN(C(=O)Oc2c(Cl)cc(Cl)c3cccnc23)CC1,inactive: -9.55%
20,c1cc(-c2nn[nH]n2)ccc1-c1nn[nH]n1,inactive: 2.05%
21,CC(C)c1nc(Nc2ccccc2)n(P(=O)(N(C)C)N(C)C)n1,inactive: 3.82%
22,CC(C)=N/N=C(\N)N[N+](=O)[O-],inactive: -0.87%
23,CN(C)C(=O)OCCc1n(C)cc[n+]1C,inactive: -0.6%
24,CCN(/C(=N/P(=O)(N1CCOCC1)N1CCOCC1)N1CCOCC1)c1ccc(OC)cc1,inactive: 5.28%
25,Nc1ccc([As](=O)(O)c2ccc(N)cc2)cc1,inactive: -0.61%

row,Structure (SMILES),inhibition
1,C[N+]1=C2C=CC=CC=C2SC12C([N+](=O)[O-])=CC([N+](=O)[O-])=C[C-]2[N+](=O)[O-] (stereo not given),inactive: -21.4%
2,CN1CCCC(OC(=O)C(c2ccccc2)c2ccccc2)C1 (stereo not given),inactive: -8.24%
3,Clc1ccc(Cl)c(NC2=NCC(CBr)S2)c1 (stereo not given),inactive: 0.56%
4,COc1ccccc1OP(=O)(Nc1ccc(C)cn1)Oc1ccccc1OC,inactive: -7.16%
5,Cc1ccc(OP(=O)(Nc2nccs2)Oc2ccc(C)cc2)cc1,inactive: 7.06%
6,CN(C(=O)Cc1ccc(Cl)c(Cl)c1)[C@H]1CCCC[C@H]1N1CCCC1,inactive: 0.6%
7,Cc1ccc(N/C(=N/P(=O)(N2CCOCC2)N2CCOCC2)N2CCOCC2)cc1,inactive: 4.07%
8,NC(=O)c1cc([N+](=O)[O-])cc([N+](=O)[O-])c1N,inactive: -49.5%
9,Oc1ccccc1CNc1ccccn1,inactive: 0.07%
10,O=C(NC(Sc1ccncn1)C(Cl)(Cl)Cl)c1ccccc1 (stereo not given),inactive: -6.74%
11,Nc1cc(N)c2nonc2c1[N+](=O)[O-],inactive: -29.4%
12,CC(C)CC(=O)NC(Sc1ccc(Cl)cc1)C(Cl)(Cl)Cl (stereo not given),inactive: 0.6%
13,CCn1c(=O)n(C2CCN(CC3CCCCCCC3)C[C@H]2CO)c2ccccc21 (stereo not given in full),inactive: 6.66%
14,Cc1cc(SC(NC(=O)c2ccc(F)cc2)C(Cl)(Cl)Cl)ncn1 (stereo not given),inactive: 8.12%
15,CCOP(=O)(Nc1ccccc1)OCC,inactive: 3.4%
16,Cc1ccc(NP(=O)(Oc2ccccc2F)Oc2ccccc2F)nc1,inactive: 7.2%
17,CN(C(=O)Cc1ccc(Cl)c(Cl)c1)[C@H]1CCCC[C@@H]1N1CCCC1,inactive: -6.6%
18,O=P(Nc1nc2ccc(Cl)cc2s1)(c1ccccc1)c1ccccc1,inactive: -2.05%
19,CN(C)P(=O)(N(C)C)n1c(Nc2ccccc2)nnc1-c1ccccc1,inactive: -3.38%
20,CC(=O)Nc1ccc([As](=O)(O)O)cc1,inactive: -8.31%
21,O=C(O)c1ccccc1[As](=O)(O)O,inactive: 0.82%
22,CCCC1OP(N)(=O)OCC1CC (stereo not given),inactive: 7.67%
23,Nc1cccc2ccc([As](=O)(O)O)cc12,inactive: -12.6%
24,CN(C(=O)Cc1ccccc1)C1CC[C@@]2(CCCO2)C[C@@H]1N1CCCC1 (stereo not given in full),inactive: 8.65%
25,CCN(N=Nc1nonc1N)c1nonc1N,inactive: 3.22%
